This passage reports EC50 and EC90 results from patent US8946224B2, “Substituted [1,2,4]triazolo[4,3-A]pyrazines for medicaments and pharmaceutical compositions” (Redx Pharma Limited, priority 2010, dated 2015).

The chains behind the UniProt entries cited, without tags or fusion partners.
UniProt P03468, whole entry: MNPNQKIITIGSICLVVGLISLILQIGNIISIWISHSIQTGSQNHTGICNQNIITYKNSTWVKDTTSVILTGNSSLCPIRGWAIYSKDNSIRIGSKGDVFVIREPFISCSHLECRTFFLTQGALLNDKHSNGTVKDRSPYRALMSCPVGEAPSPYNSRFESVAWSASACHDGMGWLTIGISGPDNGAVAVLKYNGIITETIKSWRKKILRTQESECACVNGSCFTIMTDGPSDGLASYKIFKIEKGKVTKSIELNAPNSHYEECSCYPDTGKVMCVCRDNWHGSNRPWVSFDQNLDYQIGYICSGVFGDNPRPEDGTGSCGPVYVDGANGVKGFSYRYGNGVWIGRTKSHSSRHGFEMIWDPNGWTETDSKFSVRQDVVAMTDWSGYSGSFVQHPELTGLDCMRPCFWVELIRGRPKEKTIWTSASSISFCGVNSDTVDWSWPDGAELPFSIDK

This assay addresses neuraminidase of oseltamivir-sensitive influenza virus (UniProt P03468). The assay can be described thus: Anti-influenza neuraminidase activity, chemiluminescent substrate NA-XTD (Example 100). Type of assay: biochemical.

One may read the EC50 as the concentration at which the effect is half-maximal. A higher EC50 goes with a need for much substance. For orientation: EC90 means the concentration needed for an effect of 90%. Lower therefore signals an effect from little substance. In the case of `CCC(CC)O[C@@H]1C=C(C=O)CC(N)[C@H]1NC(C)=O` (some centres unmarked), the 50% effective concentration (EC50) turned out to be 32 nM and the 90% effect concentration (EC90) was found to be 290 nM.
